Test results: ChEMBL document CHEMBL3352189 (J Med Chem, 2014)

Tested on: Venezuelan equine encephalitis virus
Assay: Antiviral activity against Venezuelan equine encephalitis virus TC83 infected in Vero 76 cells assessed as reduction in viral titer at 1 uM by crystal violet staining based microplaque assay relative to untreated control
Format: functional
Settings: strain TC83, Vero 76

CN1CCN(C)/C(=N/c2ccc([N+](=O)[O-])cc2C(=O)Nc2ccccc2)C1
fold change (FC): 1.6e+07
